{"source": "PubChem BioAssay AID2305", "about": "(GlaxoSmithKline (GSK), 2010)", "system": "P. falciparum 3D7 growth, pLDH absorbance", "experiment": "P. falciparum 3D7 growth inhibition, dose response, strain 3D7 (AID 2305)", "data": [{"smiles": "CC(C)(C)c1cc2cc(N(C(=O)c3ccc(C(F)(F)F)cc3)C3CCN(Cc4ccccc4)CC3)ccc2[nH]1", "values": [{"measurement": "IC50", "value": 1190, "unit": "nM"}]}, {"smiles": "Cn1c(=O)n(C2CCN(CCCC(c3ccc(F)cc3)c3ccc(F)cc3)CC2)c2ccccc21", "values": [{"measurement": "IC50", "value": 840, "unit": "nM"}]}]}
